For 1 substance, stoichiometry N results are on record in paper PMC8084346, “Balancing the influenza neuraminidase and hemagglutinin responses by exchanging the vaccine virus backbone” (2021).

The target of test [1] is neuraminidase (NA) from A/Brisbane/02/2018 (N1-BR18) (influenza A virus A/Brisbane/02/2018 (H1N1)).
Test [2] shares this target. The source holds these as a separate data set.

Where two headings read alike, the source gives them in different places.

Turning to “neuraminidase (NA) from A/Brisbane/02/2018 (N1-BR18)”, the stoichiometry N (in general, the number of molecules, sites or subunits per partner or assembly) amounted to 4 in test [1] and 2 in test [2].
